In US4803223A (priority 1985, dated 1989):

Experiments:
P388 leukemia = experiment: P388 lymphatic leukemia in mice (increase of lifespan); assay type: in vivo, CDF1-strain mice (male); conditions: for T/C (%): Table 1, P388 leukemia (P); for T/C: i.p., daily for 9 days, 30 days observation
[1] = test system: Walker carcinosarcoma 256; experiment: Walker carcinosarcoma 256 ascites tumor in rats (increase of lifespan); assay type: in vivo, Sprague-Dawley rats (male); conditions: for T/C (%): Table 1, Walker carcinosarcoma 256 (W); for T/C / survivors: over one month
[2] = test system: Ehrlich ascites carcinoma; experiment: Ehrlich ascites carcinoma in mice (increase of lifespan); assay type: in vivo, mice (CD2F1-strain Swiss, female); conditions: for T/C (%): Table 1, Ehrlich carcinoma (E); for T/C / survivors: 60 days observation
M5076 ovarian tumor = experiment: M5076 ovarian cancer in mice (increase of lifespan); conditions: i.p., five times at intervals of 4 days, 60 days
ascites hepatoma AH130 = experiment: Ascites hepatoma AH130 in rats, iv/iv (increase of lifespan); conditions: 25 mg/kg, i.v., 60 days
B16 melanoma = B16 melanoma in mice (increase of lifespan); conditions: i.p., daily for 9 days, 60 days observation
[3] = 50 mg/kg, i.p., daily for 9 days
[4] = 100 mg/kg, i.p., daily for 9 days
[5] = 10 mg/kg, i.p., 5 consecutive days
[6] = 25 mg/kg, i.p., 5 consecutive days
[7] = 50 mg/kg, i.p., 5 consecutive days

O=C(NCCBr)Nc1ccc(N(CCI)CCI)cc1
T/C (%) (P388 leukemia; 25 mg/Kg): 195% | T/C (%) (P388 leukemia; 50 mg/Kg): 142% | T/C (%) ([1]; 75 mg/Kg): > 361%

O=C(NCCCl)Nc1ccc(N(CCI)CCI)cc1
T/C (%) (P388 leukemia; 12.5 mg/Kg): 167% | T/C (%) (P388 leukemia; 50 mg/Kg): 151% | T/C (%) ([1]; 100 mg/Kg): > 361%

O=C(NCCBr)Nc1ccc(N(CCCl)CCCl)cc1
T/C (%) (P388 leukemia; 25 mg/Kg): 158% | T/C (%) (P388 leukemia; 50 mg/Kg): 218% | T/C (%) ([2]; 50 mg/Kg): > 392%

O=C(NCCF)Nc1cccc(N(CCBr)CCBr)c1
T/C (%) ([2]; 25 mg/Kg): 229%

O=C(NCCCl)Nc1ccc(N(CCBr)CCBr)cc1
T/C (%) (P388 leukemia; 3 mg/Kg): 196% | T/C (%) (P388 leukemia; 50 mg/Kg): 186% | T/C (%) ([2]; 50 mg/Kg): 294%

O=C(NCCI)Nc1cccc(N(CCCl)CCCl)c1
T/C (%) ([1]; 50 mg/Kg): 205%

O=C(NCCCl)Nc1ccc(N(CCCl)CCCl)cc1
T/C (M5076 ovarian tumor; 100 mg/kg): more than 214% | survivors (M5076 ovarian tumor; 100 mg/kg): seven mice survived out of ten | T/C (M5076 ovarian tumor; 200 mg/kg): more than 214% | survivors (M5076 ovarian tumor; 200 mg/kg): five mice survived out of ten | T/C (P388 leukemia; 25 mg/kg): 167% | T/C (P388 leukemia; 50 mg/kg): 189% | T/C [2, 3]: more than 392% | survivors [2, 3]: three mice survived out of six | T/C [2, 4]: 294% | survivors [2, 4]: two mice out of six survived | mean survival time (MST) ([2]; 100 mg/kg, i.p., daily for 9 days, control 15.3 days): 45.0 days | survivors (ascites hepatoma AH130; seven times (days 3, 5, 7, 11, 15, 20, 24)): four rats out of six survived | T/C (ascites hepatoma AH130; seven times, control 17.0 days): more than 353% | T/C [1, 5]: more than 361% | survivors [1, 5]: all six rats survived | T/C [1, 6]: more than 361% | survivors [1, 6]: all six rats survived | T/C [1, 7]: more than 361% | survivors [1, 7]: all six rats survived | cure of Walker carcinosarcoma 256 ([1]; 10, 50 and 25 mg/kg, i.p., 5 consecutive days): completely cured | T/C (B16 melanoma; 50 mg/kg): 171% | T/C (B16 melanoma; 100 mg/kg): 177%

O=C(NCCBr)Nc1ccc(N(CCBr)CCBr)cc1
T/C (%) (P388 leukemia; 6 mg/Kg): 213% | T/C (%) (P388 leukemia; 50 mg/Kg): 167% | T/C (%) ([2]; 50 mg/Kg): > 392% | T/C (%) ([1]; 100 mg/Kg): > 361%

O=C(NCCF)Nc1ccc(N(CCCl)CCCl)cc1
T/C (%) (P388 leukemia; 25 mg/Kg): 135% | T/C (%) ([2]; 25 mg/Kg): 294%
